PubChem BioAssay AID1224833 – University of Georgia | 2016

Purpose: 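Human genes whose knock-down alters rotavirus replication in monkey cells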 (primary screen)
Cell system: monkey MA104 kidney cells
Reagents: siRNA pool against human genes, 50 nM
Timing: 48 h knock-down before infection; read 24 h after infection
Challenge: infection with rotavirus strain RV3 two days after transfection; infectious dose for this stage not given
Detection: 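Rotavirus antigen per well by fluorescent immunoassay, normalised to non-targeting control wells on each plate and given as a standard z-score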
Direction: z-score vs non-targeting control: higher = more rotavirus replication than with non-targeting control
Rule for the call: In these data the active calls have z-score vs non-targeting control at about -1 or lower, or at about 1 or higher
Calls: active = z-score beyond 1 either way; inactive = z-score within 1 of zero
This is an unselected part of about 12,000 reagents. Of all reagents, about 5,600 (46%) got an active call. 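Active calls cover z-scores past 1 in both directions, so they include lowered as well as raised rotavirus replication.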

no.	gene	z-score vs non-targeting control	Outcome
1	ZNF354C (GeneID 30832)	-1.47	active
2	DPM3 (GeneID 54344)	-0.399	inactive
3	HSP90AB1 (GeneID 3326)	0.868	inactive
4	OR10J3 (GeneID 441911)	-0.886	inactive
5	PRKRIP1 (GeneID 79706)	-2.07	active
6	ZNF649 (GeneID 65251)	-2.57	active
7	RIMS4 (GeneID 140730)	-1.23	active
8	CILP2 (GeneID 148113)	0.27	inactive
9	TATDN2 (GeneID 9797)	0.436	inactive
10	MCAM (GeneID 4162)	-0.904	inactive
11	SSTR2 (GeneID 6752)	0.579	inactive
12	MACIR (GeneID 90355)	1.86	active
13	PAQR9 (GeneID 344838)	1.08	active
14	OLIG3 (GeneID 167826)	-1.29	active
15	RBM12 (GeneID 10137)	-0.435	inactive
16	C1QTNF8 (GeneID 390664)	-1.25	active
17	NCALD (GeneID 83988)	-0.515	inactive
18	TMEM135 (GeneID 65084)	1.27	active
19	ARPC5 (GeneID 10092)	0.0329	inactive
20	EMX1 (GeneID 2016)	-1.46	active
21	ARHGAP19 (GeneID 84986)	-1.23	active
22	SEMA6B (GeneID 10501)	-0.192	inactive
23	SDR16C5 (GeneID 195814)	1.04	active
24	SEH1L (GeneID 81929)	0.332	inactive
25	PATE2 (GeneID 399967)	1.79	active
26	TLCD3A (GeneID 79850)	-0.958	inactive
27	TAF1A (GeneID 9015)	2.23	active
28	STATH (GeneID 6779)	0.75	inactive
29	GFRAL (GeneID 389400)	0.511	inactive
30	ZDHHC7 (GeneID 55625)	-0.385	inactive
31	SAXO6 (GeneID 56890)	-1.42	active
32	GOLGB1 (GeneID 2804)	0.413	inactive
33	ZSCAN16 (GeneID 80345)	1.61	active
34	TRMT112 (GeneID 51504)	-0.904	inactive
35	VTA1 (GeneID 51534)	-0.824	inactive
36	MCTS1 (GeneID 28985)	-0.421	inactive
37	LORICRIN (GeneID 4014)	-0.208	inactive
38	CALHM5 (GeneID 254228)	-0.0393	inactive
39	CCDC47 (GeneID 57003)	0.359	inactive
40	CALR3 (GeneID 125972)	-0.0622	inactive
41	FAM168A (GeneID 23201)	-1.78	active
42	ADH4 (GeneID 127)	-0.793	inactive
43	HMCES (GeneID 56941)	0.0864	inactive
44	ITM2B (GeneID 9445)	-0.924	inactive
45	TNFSF11 (GeneID 8600)	-0.3	inactive
46	SLC18A1 (GeneID 6570)	-1.56	active
47	DMC1 (GeneID 11144)	-1.42	active
48	CDH11 (GeneID 1009)	-0.0584	inactive
49	DESI2 (GeneID 51029)	-0.285	inactive
50	TSC22D2 (GeneID 9819)	-0.954	inactive
51	ZNF500 (GeneID 26048)	0.954	inactive
52	NDUFS5 (GeneID 4725)	-0.864	inactive
53	FZD8 (GeneID 8325)	0.617	inactive
54	F2R (GeneID 2149)	-1.77	active
55	CCDC9 (GeneID 26093)	-1.86	active
56	PELI1 (GeneID 57162)	-0.446	inactive
57	AARD (GeneID 441376)	0.848	inactive
58	TRMO (GeneID 51531)	1.5	active
59	LPAR3 (GeneID 23566)	-1.51	active
60	OR52E4 (GeneID 390081)	-0.558	inactive

Single entries from above:
Under “z-score vs non-targeting control”, TLCD3A (GeneID 79850) shows -0.958
For “Outcome”, CCDC9 (GeneID 26093) reads active
Under “Outcome”, ITM2B (GeneID 9445) has inactive
CALHM5 (GeneID 254228), z-score vs non-targeting control → -0.0393
FZD8 (GeneID 8325), z-score vs non-targeting control → 0.617
Result for ZNF500 (GeneID 26048) under “Outcome”: inactive

Next records follow.
no.	gene	z-score vs non-targeting control	Outcome
61	MRPL40 (GeneID 64976)	-0.129	inactive
62	MPV17 (GeneID 4358)	0.0025	inactive
63	CAP1 (GeneID 10487)	0.805	inactive
64	SMARCC1 (GeneID 6599)	1.47	active
65	RABGAP1 (GeneID 23637)	-1.16	active
66	MRPL16 (GeneID 54948)	-0.916	inactive
67	SZT2 (GeneID 23334)	1.91	active
68	PGAP4 (GeneID 84302)	-1.04	active
69	SLX1A (GeneID 548593)	0.686	inactive
70	UQCC2 (GeneID 84300)	0.709	inactive
71	GMEB1 (GeneID 10691)	-0.82	inactive
72	CHD6 (GeneID 84181)	1.27	active
73	TOP2B (GeneID 7155)	0.527	inactive
74	SYNJ2BP (GeneID 55333)	0.459	inactive
75	MROH9 (GeneID 80133)	-0.691	inactive
76	SFRP2 (GeneID 6423)	-1.31	active
77	MARVELD2 (GeneID 153562)	-0.154	inactive
78	VSX2 (GeneID 338917)	0.0671	inactive
79	NXT2 (GeneID 55916)	2.67	active
80	RELT (GeneID 84957)	-0.502	inactive
81	CIMIP7 (GeneID 646498)	-2.77	active
82	SLX1B (GeneID 79008)	-2.33	active
83	KLHL42 (GeneID 57542)	-1.45	active
84	C10orf88 (GeneID 80007)	-1.02	active
85	THOC3 (GeneID 84321)	0.0408	inactive
86	SLPI (GeneID 6590)	-1.14	active
87	LILRA5 (GeneID 353514)	-0.956	inactive
88	KIAA1191 (GeneID 57179)	0.745	inactive
89	PAQR8 (GeneID 85315)	0.541	inactive
90	GBP4 (GeneID 115361)	2.26	active
91	RHOG (GeneID 391)	-0.809	inactive
92	ZNF581 (GeneID 51545)	-1.93	active
93	AKAP17A (GeneID 8227)	0.375	inactive
94	OR8K1 (GeneID 390157)	-1.12	active
95	STMN1 (GeneID 3925)	-2.06	active
96	CATSPERT (GeneID 151254)	0.639	inactive
97	TACC2 (GeneID 10579)	0.279	inactive
98	ZNF585A (GeneID 199704)	-1.76	active
99	RHOA (GeneID 387)	1.26	active
100	ARL1 (GeneID 400)	-1.06	active
101	EDC3 (GeneID 80153)	0.973	inactive
102	POLR1E (GeneID 64425)	0.623	inactive
103	IPO8 (GeneID 10526)	-0.981	inactive
104	GP1BA (GeneID 2811)	-1.53	active
105	NSMAF (GeneID 8439)	-0.512	inactive
106	LRRC43 (GeneID 254050)	-1.5	active
107	CPNE2 (GeneID 221184)	-2.06	active
108	PNMA1 (GeneID 9240)	0.308	inactive
109	ERICH1 (GeneID 157697)	1.23	active
110	CST9 (GeneID 128822)	-0.429	inactive
